In publication PMC6250670, “Identifying the region responsible for Brucella abortus MucR higher-order oligomer formation and examining its role in gene regulation” (2018):

Target: MucR_(33-142) deletion mutant (Brucella abortus)
Assay: SEC-MALS

MucR_(33-142) deletion mutant (domain or fragment)
stoichiometry N: 10.5
